{"source": "paper PMC7681013", "about": "“Structure and kinetics of indole-3-glycerol phosphate synthase from Pseudomonas aeruginosa: Decarboxylation is not essential for indole formation” (The Journal of Biological Chemistry, 2020)", "tested_on": "O=C(CNc1ccccc1)[C@H](O)[C@H](O)COP(=O)(O)O", "assay": "purified protein", "conditions": "50 mM Tris-HCl, 4 mM MgCl2, 0.5 mM TCEP, pH 7.0, 25 °C, substrate made enzymatically in situ from aniline and PRPP, 2.5 μM enzyme"}
{"substance": "PaIGPS (Pseudomonas aeruginosa PAO1; F201L)", "values": [{"measurement": "Km", "value": "130 ± 60", "unit": "µM"}, {"measurement": "kcat", "value": "6.8 ± 0.8", "unit": "h⁻¹"}]}
